Experimental data reported in PMC6862080 (International Journal of Molecular Sciences, 2019).
Peptide text beside a SMILES is read from it. * marks the point of attachment. Myristoyl = CCCCCCCCCCCCCC(=O)*

Experiment: Coupling efficiency on NHS-activated agarose beads
Conditions: mg per ml adsorbent, 400 μL peptide solution 1 mg/mL, 2 h room temperature, PBS pH 7.4, Pierce 660 nm protein assay

Compound	Coupling Efficiency
CCCCCCCCCCCCCC(=O)N1CCC[C@H]1C(=O)N[C@@H](Cc1ccccc1)C(=O)N[C@@H](Cc1c[nH]c2ccccc12)C(=O)N[C@@H](CCCNC(=N)N)C(=O)N[C@H](C(=O)N[C@@H](CCCNC(=N)N)C(=O)N[C@H](C(=O)N[C@@H](CCCNC(=N)N)C(=O)N[C@@H](CCCNC(=N)N)C(N)=O)[C@@H](C)CC)[C@@H](C)CC [LF11-322-C14] (Myristoyl-PFWRIRIRR-NH2)	0.25 ± 0.09 mg/mL
H-FWRRFWRR-NH2 [LF11-227-NH2]	1.57 ± 0.27 mg/mL
H-PFWRIRIRR-NH2 [LF11-322-NH2]	1.67 ± 0.31 mg/mL
Polymyxin B [PMB, reference compound]	1.68 ± 0.23 mg/mL
CCCCCCCCCCCCCC(=O)N[C@@H](Cc1ccccc1)C(=O)N[C@@H](Cc1c[nH]c2ccccc12)C(=O)N[C@@H](CCCNC(=N)N)C(=O)N[C@@H](CCCNC(=N)N)C(=O)N[C@@H](Cc1ccccc1)C(=O)N[C@@H](Cc1c[nH]c2ccccc12)C(=O)N[C@@H](CCCNC(=N)N)C(=O)N[C@@H](CCCNC(=N)N)C(N)=O [LF11-227-C14] (Myristoyl-FWRRFWRR-NH2)	0.31 ± 0.11 mg/mL
